Structures are written as SMILES. The entries are a selection whose mix differs from that of the whole data set. The source made the active and inactive calls.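 Rule for the calls: active = every replicate shows inhibition above about 80%, whatever the replicate mean (limit read from the data); inconclusive = mean inhibition reaches the set limit but some replicate falls short; inactive = the rest.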

The assay can be described thus: growth inhibition of PfHsp90-expressing yeast, primary screen, antimalarial PfHsp90 inhibitor project, S. cerevisiae, BacTiter-Glo luminescence, single point, set 2 (AID 504621).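 Note: yeast relying on Plasmodium falciparum Hsp90 in place of its own; 0% = DMSO neutral controls and 100% = 20 µM radicicol positive controls.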 The following applies: BacTiter-Glo ATP, 48 h, at 9.4 µM, hits give high values, yeast lacking PDR1 and PDR3 efflux regulators.
As usually defined, the inhibition is the drop in the measured response relative to a control, in per cent. With `Cc1ccc(NP(=O)(Oc2cccc(C)c2)Oc2cccc(C)c2)nc1`, the inhibition was inactive: 5.03%.
The figure for `c1ccc(-c2nn[nH]n2)c(-c2nn[nH]n2)c1` is inactive: 15%.
In the case of `CCNC(=S)/N=C(\N)N[N+](=O)[O-]`, the inhibition was inactive: 1.54%.
To `O=C(NC1CCS(=O)(=O)C1)NP(=S)(Oc1ccccc1)Oc1ccccc1` (centres undefined) belongs inactive: -21%; to `O=c1c2cc([N+](=O)[O-])ccc2[nH]c2c([N+](=O)[O-])cc([N+](=O)[O-])cc12`, active: 105%; to `CN(C)C(=O)Oc1noc2ccccc12`, inactive: -17%.
To `Cc1ccccc1OP(=O)(Nc1ccccn1)Oc1ccccc1C` belongs inactive: -7.01%; to `CCC(=O)N1C2C3N(C(=O)CC)C1C1N(C(=O)CC)C(C(N1C(=O)CC)N3C(=O)CC)N2C(=O)CC`, inactive: -9.77%.
The figure for `O=C(OC1CN2CCC1CC2)c1ccccc1` (centres undefined) is inactive: -7.32%; for `Cc1ccc(OP(=O)(Nc2ccccn2)Oc2ccc(C)cc2)cc1` it is active: 90.4%.
Consider `CC(=O)NC(SC(=S)N(CC(C)C)CC(C)C)C(Cl)(Cl)Cl` (centres undefined), for which the inhibition was inactive: -5.93%.
The figure for `COC(=O)c1cc2c(s1)N=C(c1ccccc1)N(C)P2(=O)N1CCOCC1` (centres undefined) is inactive: 7.33%.
The figure for `Cc1ccc(NP(=O)(Oc2ccccc2F)Oc2ccccc2F)nc1` is inactive: 15.4%.
Consider `CN(C(=O)Cc1ccc(Cl)c(Cl)c1)[C@H]1CCCC[C@@H]1N1CCCC1`, for which the inhibition is inactive: 4.27%.
The figure for `Cc1cc(SC(NC(=O)c2ccc(F)cc2)C(Cl)(Cl)Cl)ncn1` (centres undefined) is inactive: 23.3%.
The figure for `CCOP(=O)(Nc1ccccc1)OCC` is inactive: 6.62%.
The figure for `O=P(Nc1nc2ccc(Cl)cc2s1)(c1ccccc1)c1ccccc1` is inactive: -15.7%; for `CCCC1OP(N)(=O)OCC1CC` (centres undefined) it is inactive: -12.9%; for `CC(=O)Nc1ccc([As](=O)(O)O)cc1` it is inactive: 4.4%.
With `O=C(O)c1ccccc1[As](=O)(O)O`, the inhibition is inactive: 2.99%.
To `Nc1cccc2ccc([As](=O)(O)O)cc12` belongs inactive: -5.21%; to `CCN(N=Nc1nonc1N)c1nonc1N`, inactive: 6.73%.
For `CN1CCCC(OC(=O)C(c2ccccc2)c2ccccc2)C1` (centres undefined), the inhibition was inactive: 35%.
To `Clc1ccc(Cl)c(NC2=NCC(CBr)S2)c1` (centres undefined) belongs inactive: -37.6%.
To `COc1ccccc1OP(=O)(Nc1ccc(C)cn1)Oc1ccccc1OC` belongs inactive: 27.5%; to `Cc1ccc(N/C(=N/P(=O)(N2CCOCC2)N2CCOCC2)N2CCOCC2)cc1`, inactive: 13.2%.
The figure for `CN(C(=O)Cc1ccc(Cl)c(Cl)c1)[C@H]1CCCC[C@H]1N1CCCC1` is inactive: -11.2%.
For the molecule `NC(=O)c1cc([N+](=O)[O-])cc([N+](=O)[O-])c1N`, the inhibition was inactive: -37.1%.
To `O=C(NC(Sc1ccncn1)C(Cl)(Cl)Cl)c1ccccc1` (centres undefined) belongs inactive: 7.45%; to `Oc1ccccc1CNc1ccccn1`, inactive: 7.96%.
To `Nc1cc(N)c2nonc2c1[N+](=O)[O-]` belongs inactive: 18.6%.
To `CC(C)CC(=O)NC(Sc1ccc(Cl)cc1)C(Cl)(Cl)Cl` (centres undefined) belongs inactive: 8.33%; to `O=[N+]([O-])c1cc([N+](=O)[O-])c(CCNc2ccccc2)c([N+](=O)[O-])c1`, inactive: -12.6%.
Consider `Cc1ccc(NP(=O)(Oc2ccccc2)Oc2ccccc2)nc1`, for which the inhibition was inactive: 22%.
To `O=[N+]([O-])c1cccc2n[nH]nc12` belongs inactive: -2.75%; to `CC(=O)N1C2C3N(C(C)=O)C1C1N(C(C)=O)C(C(N1C(C)=O)N3C(C)=O)N2C(C)=O`, inactive: -9.12%.
To `CC1CCN(C(=O)Oc2c(Cl)cc(Cl)c3cccnc23)CC1` belongs inactive: -4.37%.
The figure for `CN(C)C(=O)OCCc1n(C)cc[n+]1C` is inactive: -16%.
For `CC(C)=N/N=C(\N)N[N+](=O)[O-]`, the inhibition is inactive: -18.5%.
The figure for `CCN(/C(=N/P(=O)(N1CCOCC1)N1CCOCC1)N1CCOCC1)c1ccc(OC)cc1` is inactive: -6.21%; for `C[N+]1=C2C=CC=CC=C2SC12C([N+](=O)[O-])=CC([N+](=O)[O-])=C[C-]2[N+](=O)[O-]` (centres undefined) it is inactive: -19.9%.
The figure for `Nc1ccc([As](=O)(O)c2ccc(N)cc2)cc1` is inactive: 2.39%; for `O=C(Nc1cc([As](=O)(O)O)ccc1O)c1ccccc1` it is inactive: -1.67%; for `O=P1(N(CCCl)CCCl)OCCCS1` (centres undefined) it is inactive: 6.79%.
The figure for `O=C(O)CNc1ccc([As](=O)(O)O)cc1` is inactive: -7.28%; for `COC(=O)C1(C)COP(=O)(Nc2ccccc2)OC1` (centres undefined) it is inactive: 18.4%.
For `O=[N+]([O-])c1cccc(NC2=NCC(CBr)S2)c1` (centres undefined), the inhibition is inactive: -14%.
Turning to `O=[N+]([O-])c1ncn(CCn2ncnc2[N+](=O)[O-])n1`, the inhibition is inactive: -11.2%.
The figure for `CC(C)(C)C(=O)NC(Sc1ccncn1)C(Cl)(Cl)Cl` (centres undefined) is inactive: -50.8%.
